# Sequence variants of PSTVd loop 6 after infection

From the data files of Wu et al. 2024, doi:10.1371/journal.ppat.1012142.

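A pool of all variants was put on leaves of three Nicotiana benthamiana plants. Samples came from the inoculated region at 5 days, the leaf margin at 10 and upper systemic leaves at 12.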

The pool varies loop 6 of the PSTVd intermediate strain in the pattern UNNNCGNNNG; wild type is UGACCGCGAG (upper and lower strand joined, each 5' to 3', the first 5 letters being the upper strand, closing pairs included).

Numbers give reads per thousand; 0 = not seen among the reads, higher = more abundant. Each site shows the three plants. "Pool" is the share in the plasmid pool used as inoculum, on the same scale. The inoculated region was read from the minus strand, the other sites from the plus strand. With 36,220-57,551 reads a sample, very low values are single reads. The authors trace changes outside the varied positions to PCR and sequencing errors or to mutation in the plant; presence does not show that a variant is infectious alone. Wild type was 20.7 per thousand in the pool and the most common sequence in every sample (inoculated region 195, 198, 203; leaf margin 629, 591, 734; systemic leaves 942, 870, 868).

sequence | pool | inoculated region | leaf margin | systemic leaves
UAAACGACGG | 0.105 | 0.0695 0.0898 0.0369 | 0.0276 0 0 | 0 0 0
UAAACGGACG | 0.196 | 0.591 4.51 5.42 | 13.5 1.36 0.928 | 0.180 0.646 0.410
UAAACGUCUG | 0.288 | 0.122 0.126 0.0184 | 0 0 0 | 0 0 0
UAAGCGGUCG | 0.327 | 0.139 0.0180 0.0369 | 0.0276 0 0 | 0 0 0
UAAUCGUAAG | 0.196 | 0.174 0.0719 0.0184 | 0.0276 0 0 | 0 0 0
UAAUCUAUGG | 0.0131 | 0 0 0 | 0 0 0 | 0 0 0
UACACGACUG | 0.301 | 0.104 0.0539 0.0553 | 0 0 0.0232 | 0 0 0
UACGCGACUG | 0.248 | 0.0521 0.0359 0.0922 | 0 0 0.0232 | 0 0 0
UACUCGUACG | 0.170 | 0.122 0.0719 0.111 | 0 0 0.0232 | 0 0 0
UAGUCGCUAG | 0.0784 | 0.174 0.0898 0.0369 | 0 0 0.0232 | 0 0 0
UAUACGCGUG | 0.275 | 0.0869 0.0359 0.129 | 0 0 0 | 0 0 0
UAUACGCUGG | 0.196 | 0.104 0.0180 0.111 | 0.0276 0 0 | 0 0 0
UAUCCGCGCG | 0.209 | 0.104 0.108 0.0922 | 0.0276 0 0 | 0 0 0
UAUUCGGUUG | 0.170 | 0.139 0.0359 0.0184 | 0 0 0 | 0 0 0
UCACCGACGG | 0.131 | 0.174 0.0719 0.0369 | 0 0 0.0464 | 0 0 0
UCACCUCGCG | 0.0131 | 0 0 0 | 0 0 0 | 0 0 0
UCAGCGCAAG | 0.105 | 0.0695 0.0898 0.258 | 0 0 0 | 0 0 0
UCAUCGCGAG | 0.0915 | 0.295 0.341 0.443 | 0.221 0.0252 0.232 | 0 0 0.0615
UCGACGCGCG | 0.170 | 0.0521 0.162 0.0738 | 0 0 0 | 0 0 0
UCGACGCUCG | 0.235 | 0.0695 0.0539 0.0922 | 0.0276 0 0.0232 | 0 0 0
UCGCCGCUUG | 0.170 | 0.191 0.0898 0.0184 | 0 0 0 | 0 0 0
UCUACGGCAG | 0.183 | 0.0695 0.0180 0.0553 | 0 0 0 | 0 0 0
UCUGCGUGAG | 0.340 | 0.139 0.0898 0.0922 | 0.0276 0 0.0232 | 0 0 0
UGACCGCGCG | 0.144 | 0.226 0.198 0.277 | 0.248 0.580 0.162 | 0.234 0.141 0.287
UGACCGUGAG | 0.340 | 0.539 0.539 0.756 | 0.966 0.908 0.441 | 0.539 0.707 0.841
UGCACGGUCG | 0.288 | 0.139 0.108 0.111 | 0 0 0 | 0 0 0
UGCGCGGUUG | 0.222 | 0.139 0.0539 0.0922 | 0 0 0 | 0 0 0
UGCUCGCGUG | 0.196 | 0.156 0.180 0.0738 | 0.0276 0 0 | 0 0 0
UGGCCGGUAG | 0.261 | 0.122 0.0898 0.111 | 0 0 0.0232 | 0 0 0
UGGCCGUUCG | 0.222 | 0.104 0.126 0.111 | 0.110 0 0.0232 | 0 0 0
UUAACGCUAG | 0.170 | 0.626 0.790 0.295 | 0.110 0.0757 0.0696 | 0 0 0
UUAGCGGUGG | 0.392 | 0.0521 0.0898 0.0922 | 0 0 0 | 0 0 0
UUAUCGGGUG | 0.288 | 0.0695 0.0898 0.0738 | 0.0276 0 0.0232 | 0 0.0202 0
UUCGCGAGGG | 0.157 | 0.0869 0.144 0.0369 | 0 0 0 | 0 0 0
UUCGCGUACG | 0.288 | 0.104 0.0719 0.0553 | 0 0 0 | 0 0 0
UUGCCAGCGG | 0.0131 | 0 0 0 | 0 0 0 | 0 0 0
UUGCCGGAGG | 0.275 | 0.104 0.0898 0.0553 | 0 0 0 | 0 0 0.0205
UUGUCGGCCG | 0.288 | 0.0869 0.126 0.0184 | 0 0 0.0232 | 0 0 0
UUUACGCGGG | 0.275 | 0.209 0.0898 0.129 | 0.0276 0 0.0232 | 0 0 0

2 of these entries, quoted again:

sequence,pool,inoculated region,leaf margin,systemic leaves
UAAUCUAUGG,0.0131,0 0 0,0 0 0,0 0 0
UAAACGUCUG,0.288,0.122 0.126 0.0184,0 0 0,0 0 0